Measured values from several laboratories, pooled; numbers as filed in NIAID ChemDB.

Common to all: tests in culture

Rows are shuffled and stem from different studies. Percent inhibition refers to the dose given; in toxicity tests it is the harm to the cells. Two numbers with a dash give a range or band. An empty or dashed field is not shown. A number after MIC or MFC names an inhibition level or a share of isolates.

compound,changes,setting,species,endpoint,read by,strain,dose,value
COc1cc(Cc2cnc(N)nc2N)cc(OC)c1Br,-,-,Mycobacterium ulcerans,MBC,-,Isolate 5143,-,8 µg/mL
CO[C@H]1/C=C/O[C@@]2(C)Oc3c(C)c(O)c4c(O)c(c5c(c4c3C2=O)NC2(CCN(CC(C)C)CC2)N=5)=NC(=O)/C(C)=C\C=C\[C@H](C)[C@H](O)[C@@H](C)[C@@H](O)[C@@H](C)[C@H](OC(C)=O)[C@@H]1C,-,-,Mycobacterium avium complex,MBC,-,2212-4,-,32 µg/mL
CN(C)c1ccc(O)c2c1C[C@H]1C[C@H]3[C@H](N(C)C)C(=O)C(C(N)=O)=C(O)[C@@]3(O)C(=O)C1=C2O,-,-,Mycobacterium avium,Median MIC,-,ATCC 25291,-,32 µg/mL
CO[C@@H]1C[C@@H](C[C@H]2CC[C@H](C)[C@H]([C@@H](C)C(=O)O)O2)O[C@]2(O[C@](C)([C@H]3CC[C@@](C)([C@@H]4O[C@@H]([C@H]5O[C@@](O)(CO)[C@H](C)C[C@@H]5C)C[C@@H]4C)O3)C[C@H]2C)[C@@H]1C,G364T,-,Mycobacterium aurum,MIC,resazurin,-,-,0.32 µg/mL
CC1CN(c2c(F)cc3c(=O)c(C(=O)O)cn(C4CC4)c3c2F)CC(C)N1,-,-,Mycobacterium smegmatis,MIC99,-,KD1995 (GYRA D95H),-,0.92 µg/mL
NNC(=S)N/N=C/c1cn(Cc2ccc(Cl)cc2)c2ccccc12,-,24 h,Mycobacterium bovis BCG,MIC100,broth dilution,1173P2,-,>500 µg/mL
COc1c(O)cc2oc(-c3ccccc3)cc(=O)c2c1OC,-,-,Mycobacterium phlei,MIC,-,-,-,75 µg/mL
C[C@@H]1CN(c2c(F)c(N)c3c(=O)c(C(=O)O)cn(C4CC4)c3c2F)C[C@H](C)N1,-,-,Mycobacterium avium complex,MIC,broth dilution,27,-,1 µg/mL
CN(C)c1cc(NC(=O)CNC(C)(C)C)c(O)c2c1C[C@H]1C[C@H]3[C@H](N(C)C)C(=O)C(C(N)=O)=C(O)[C@@]3(O)C(=O)C1=C2O,-,-,Mycobacterium massiliense,MIC,broth dilution,V60,-,1 µg/mL
Cc1cc(NS(=O)(=O)c2ccc(NC(=O)N3CCC3)cc2)no1,-,7 d,Mycobacterium kansasii,MIC100,broth dilution / absorbance,235/80,-,4 µM
CN[C@@H]1[C@@H](O[C@H]2O[C@H](CO)[C@@H](N)[C@H](O)[C@H]2O)OC2C[C@@H](N)[C@@H](O[C@H]3[C@H](OC4O[C@H](CO)[C@@H](OCCN)[C@H]4O)[C@@H](O)[C@H](N)C[C@@H]3N)OC2[C@@H]1O,-,-,Mycobacterium abscessus,MIC,broth dilution,L948,-,8 µg/mL
NNC(=S)N/N=C/c1cn(CC2CCCCC2)c2ccccc12,-,24 h,Mycobacterium bovis BCG,MIC100,broth dilution,1173P2,-,>500 µg/mL
CC[C@@H](C(=O)[C@@H](C)[C@@H](O)[C@H](C)[C@@H]1O[C@@H]([C@@H](CC)C(=O)O)CC[C@@H]1C)[C@H]1O[C@@]2(C=C[C@@H](O)[C@@]3(CC[C@@](C)([C@H]4CC[C@](O)(CC)[C@H](C)O4)O3)O2)[C@H](C)C[C@@H]1C,-,-,Mycobacterium abscessus,MIC,resazurin,L948,-,>20 µg/mL
COc1ccc(Cn2cc(/C=N/NC(=S)NN)c3ccccc32)cc1,-,24 h,Mycobacterium bovis BCG,MIC100,broth dilution,1173P2,-,>500 µg/mL
O=C(O)c1cc(C(F)(F)F)cc2c(=O)nc(N3CCN(CC4CCCCC4)CC3)sc12,-,-,Mycobacterium bolletii,MIC99,resazurin,1999-0888,-,>100 µg/mL
CN[C@@H]1[C@@H](O)[C@@H](O[C@@H]2[C@@H](O)[C@H](O[C@H]3O[C@H](CN)CC[C@H]3N)[C@@H](N)C[C@H]2N)OC[C@]1(C)O,-,-,Mycobacterium abscessus,MIC,broth dilution,L948,-,2–4 µg/mL
O=C(O)c1cn(C2CC2)c2c(F)c(N3CCNCC3)c(F)cc2c1=O,-,-,Mycobacterium smegmatis,MIC99,-,KD1990 (GYRA D95A),-,0.65 µg/mL
C[C@@H]1CN(c2c(F)c(N)c3c(=O)c(C(=O)O)cn(C4CC4)c3c2F)C[C@H](C)N1,-,-,Mycobacterium avium,Median MIC,-,ATCC 25291,-,3 µg/mL
CCCCNC(=O)Nc1ccc(S(=O)(=O)Nc2cc(C)on2)cc1,-,14 d,Mycobacterium kansasii,MIC100,broth dilution / absorbance,235/80,-,250 µM
CCC1CN(c2cc3c(cc2F)c(=O)c(C(=O)O)cn3C2CC2)CCN1,-,-,Mycobacterium smegmatis,MIC99,-,KD1163 (GRYA+),-,0.12 µg/mL
CCc1cc(C(N)=S)ccn1,-,-,Mycobacterium avium intracellulare,inhibition,-,Serovar 8,20 µg/mL,100%
CCc1cc(C(N)=S)ccn1,-,-,Mycobacterium avium,Mean MIC,-,ATCC 25291,-,>2.8 µg/mL
CC[C@@H](CO)NCCN[C@@H](CC)CO,-,-,Mycobacterium avium complex,MBC,-,921,-,15 µg/mL
CCCCCCNC(=O)Nc1ccc(S(=O)(=O)Nc2cc(C)on2)cc1,-,21 d,Mycobacterium kansasii,MIC100,broth dilution / absorbance,6509/96 clinical isolate,-,250 µM
NC[C@H]1O[C@H](O[C@H]2[C@H](O)[C@@H](O[C@H]3O[C@H](CO)[C@@H](O)[C@H](N)[C@H]3O)[C@H](N)C[C@@H]2N)[C@H](O)[C@@H](O)[C@@H]1O,-,-,Mycobacterium avium complex,MIC,-,Isolate C-21,-,200 µg/mL
CCC1CN(c2c(F)cc3c(=O)c(C(=O)O)cn(C4CC4)c3c2OC)CCN1,-,-,Mycobacterium smegmatis,MIC99,-,KD1998 (GYRA D95N),-,0.63 µg/mL
CN[C@@H]1[C@@H](O[C@H]2O[C@H](CO)[C@@H](N)[C@H](O)[C@H]2O)OC2C[C@@H](N)[C@@H](O[C@H]3[C@@H](O)[C@@H](O)[C@H](NC(=O)C(O)CCN)C[C@@H]3N)OC2[C@@H]1O,-,-,Mycobacterium abscessus,MIC,broth dilution,L948,-,2 µg/mL
COc1c(N2CC(C)NC(C)C2)c(F)cc2c(=O)c(C(=O)O)cn(C3CC3)c12,-,-,Mycobacterium smegmatis,MIC99,-,KD1995 (GYRA D95H),-,0.59 µg/mL
NNC(=S)N/N=C/c1cn(CC2CCC2)c2ccccc12,-,48 h,Mycobacterium bovis BCG,MIC100,broth dilution,1173P2,-,>500 µg/mL
CO[C@H]1/C=C/O[C@@]2(C)Oc3c(C)c(O)c4c(O)c(c(/C=N/N5CCN(C6CCCC6)CC5)c(O)c4c3C2=O)NC(=O)/C(C)=C\C=C\[C@H](C)[C@H](O)[C@@H](C)[C@@H](O)[C@@H](C)[C@H](OC(C)=O)[C@@H]1C,-,-,Mycobacterium avium,Median MIC,-,ATCC 25291,-,>1 µg/mL
COc1c(-c2ccccc2)oc2cc3c(c(OC)c2c1=O)OCO3,-,-,Mycobacterium phlei,MIC,-,-,-,20 µg/mL
NC[C@H]1O[C@H](O[C@H]2[C@H](O)[C@@H](O[C@H]3O[C@H](CO)[C@@H](O)[C@H](N)[C@H]3O)[C@H](N)C[C@@H]2N)[C@H](N)C[C@@H]1O,-,-,Mycobacterium avium,Mean MIC,-,ATCC 25291,-,4.5 µg/mL
O=c1c(O)c(-c2ccccc2)oc2cc(O)cc(O)c12,-,-,Mycobacterium phlei,MIC,-,-,-,50 µg/mL
Cc1cc(NS(=O)(=O)c2ccc(NC(=O)Nc3ccc(S(=O)(=O)Nc4cc(C)on4)cc3)cc2)no1,-,21 d,Mycobacterium kansasii,MIC100,broth dilution / absorbance,235/80,-,2 µM
CC1CN(c2c(F)cc3c(=O)c(C(=O)O)cn(C4CC4)c3c2Cl)CCN1,-,-,Mycobacterium smegmatis,MIC99,-,KD1163 (GRYA+),-,0.029 µg/mL
C[C@H]1COC2(CCN(c3nc(=O)c4cc(C(F)(F)F)cc(C(=O)O)c4s3)CC2)O1,-,-,Mycobacterium abscessus,MIC99,resazurin,2005-0524,-,>100 µg/mL
Cc1ccc(Cn2cc(/C=N/Nc3nncs3)c3ccccc32)cc1,-,24 h,Mycobacterium bovis BCG,MIC100,broth dilution,1173P2,-,62.5 µg/mL
COc1cc(Cc2cnc(N)nc2N)cc(OC)c1OCCCNc1ccc(S(=O)(=O)c2ccc(N)cc2)cc1,-,-,Mycobacterium ulcerans,MIC,-,Isolate 842,-,1 µg/mL
C=C[C@@](C)(/C=C/c1ccc(O)cc1)CCC=C(C)C,-,-,Mycobacterium aurum,MIC50,-,-,-,15.79 µg/mL
CC(=O)O[C@H]1C[C@@]2(C)[C@@H](C[C@@H](O)[C@H]3[C@@]4(C)CC[C@@H](O)[C@@H](C)[C@@H]4CC[C@@]32C)/C1=C(\CCC=C(C)C)C(=O)O,-,-,Mycobacterium avium,Median MIC,-,ATCC 25291,-,24 µg/mL
CN[C@@H]1[C@@H](O[C@H]2O[C@H](CO)[C@@H](N)[C@H](O)[C@H]2O)OC2C[C@@H](N)[C@@H](O[C@H]3[C@H](O[C@@H]4O[C@H](CNCCN)[C@@H](O)[C@H]4O)[C@@H](O)[C@H](N)C[C@@H]3N)OC2[C@@H]1O,-,-,Mycobacterium abscessus,MIC,broth dilution,L948,-,2 µg/mL
CCN1CCN(c2c(F)cc3c(=O)c(C(=O)O)cn(C4CC4)c3c2OC)CC1,-,-,Mycobacterium smegmatis,MIC99,-,KD1991 (GYRA D95Y),-,0.81 µg/mL
CO[C@H]1/C=C/O[C@@]2(C)Oc3c(C)c(O)c4c(O)c(c5c(c4c3C2=O)NC2(CCN(CC(C)C)CC2)N=5)=NC(=O)/C(C)=C\C=C\[C@H](C)[C@H](O)[C@@H](C)[C@@H](O)[C@@H](C)[C@H](OC(C)=O)[C@@H]1C,-,-,Mycobacterium avium,Mean MIC,-,ATCC 25291,-,>0.53 µg/mL
CCN(CC)c1nc2c(s1)c1c(O)c3c(O)c(C)c4c(c32)C(=O)[C@@](C)(O/C=C/[C@H](OC)[C@@H](C)[C@@H](OC(C)=O)[C@H](C)[C@H](O)[C@H](C)[C@@H](O)[C@@H](C)/C=C/C=C(/C)C(=O)N1)O4,-,-,Mycobacterium avium,MBC,-,3350-4,-,8 µg/mL
CN[C@@H]1[C@H](O[C@H]2[C@H](O[C@H]3[C@H](O)[C@@H](O)[C@H](N=C(N)N)[C@@H](O)[C@@H]3N=C(N)N)O[C@@H](C)[C@]2(O)C=O)O[C@@H](CO)[C@H](O)[C@H]1O,-,-,Mycobacterium avium,Mean MIC,-,ATCC 25291,-,1.88 µg/mL
C[C@H]1COC2(CCN(C3=NC(=O)c4cc(C(F)(F)F)cc([N+](=O)[O-])c4S3(=O)=O)CC2)O1,-,-,Mycobacterium vaccae,MIC,broth dilution / turbidity,IMET 10670,-,<0.013 µg/mL
CC1CN(c2cc3c(cc2F)c(=O)c(C(=O)O)cn3C2CC2)CCN1,-,-,Mycobacterium smegmatis,MIC99,-,KD1990 (GYRA D95A),-,1.2 µg/mL
COc1cc2oc(-c3ccccc3)c(OC)c(=O)c2c(OC)c1OC,-,-,Mycobacterium phlei,MIC,-,-,-,20 µg/mL
CN[C@@H]1[C@@H](O[C@H]2O[C@H](CO)[C@@H](N)[C@H](O)[C@H]2O)OC2C[C@@H](N)[C@@H](O[C@H]3[C@H](F)[C@@H](O)[C@H](N)C[C@@H]3N)OC2[C@@H]1O,-,-,Mycobacterium abscessus,MIC,broth dilution,L948,-,1 µg/mL
CCN1CCN(c2c(F)cc3c(=O)c(C(=O)O)cn(C4CC4)c3c2F)CC1,-,-,Mycobacterium smegmatis,MIC99,-,KD2012 (GYRA G89A),-,0.43 µg/mL
O=c1c(O)c(-c2ccc(O)c(O)c2)oc2cc(O)ccc12,-,-,Mycobacterium phlei,MIC,-,-,-,>100 µg/mL
CNC(=O)Nc1ccc(S(=O)(=O)Nc2cc(C)on2)cc1,-,21 d,Mycobacterium kansasii,MIC100,broth dilution / absorbance,235/80,-,125 µM
CN[C@@H]1[C@@H](O[C@H]2O[C@H](CO)[C@@H](N)[C@H](O)[C@H]2O)O[C@H]2C[C@@H](N)C(O[C@H]3[C@H](O)[C@@H](O)[C@H](N)C[C@@H]3N)O[C@@H]2[C@@H]1O,-,-,Mycobacterium abscessus,MIC,broth dilution,L948,-,2 µg/mL

The first 5 rows once more:

compound	changes	setting	species	endpoint	read by	strain	dose	value
COc1cc(Cc2cnc(N)nc2N)cc(OC)c1Br	-	-	Mycobacterium ulcerans	MBC	-	Isolate 5143	-	8 µg/mL
CO[C@H]1/C=C/O[C@@]2(C)Oc3c(C)c(O)c4c(O)c(c5c(c4c3C2=O)NC2(CCN(CC(C)C)CC2)N=5)=NC(=O)/C(C)=C\C=C\[C@H](C)[C@H](O)[C@@H](C)[C@@H](O)[C@@H](C)[C@H](OC(C)=O)[C@@H]1C	-	-	Mycobacterium avium complex	MBC	-	2212-4	-	32 µg/mL
CN(C)c1ccc(O)c2c1C[C@H]1C[C@H]3[C@H](N(C)C)C(=O)C(C(N)=O)=C(O)[C@@]3(O)C(=O)C1=C2O	-	-	Mycobacterium avium	Median MIC	-	ATCC 25291	-	32 µg/mL
CO[C@@H]1C[C@@H](C[C@H]2CC[C@H](C)[C@H]([C@@H](C)C(=O)O)O2)O[C@]2(O[C@](C)([C@H]3CC[C@@](C)([C@@H]4O[C@@H]([C@H]5O[C@@](O)(CO)[C@H](C)C[C@@H]5C)C[C@@H]4C)O3)C[C@H]2C)[C@@H]1C	G364T	-	Mycobacterium aurum	MIC	resazurin	-	-	0.32 µg/mL
CC1CN(c2c(F)cc3c(=O)c(C(=O)O)cn(C4CC4)c3c2F)CC(C)N1	-	-	Mycobacterium smegmatis	MIC99	-	KD1995 (GYRA D95H)	-	0.92 µg/mL